Target: Efficient evolution design from the S309 starting point (Table 4, design row 3, the 4th table, row 6)
Experiment: SPR

With “SARS-CoV-2 Spike RBD, XBB.1.5 strain (from UniProt P0DTC2) (domain or fragment)” the pKD was 8.46 -log10(KD).

— PMC12164381
